Results as given in patent US20130190228.

Target: T1, EB peptide (entry blocker)
T1 chain: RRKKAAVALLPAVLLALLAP

B1: neuraminidase (NA) of PR/8 virus (protein)
chain: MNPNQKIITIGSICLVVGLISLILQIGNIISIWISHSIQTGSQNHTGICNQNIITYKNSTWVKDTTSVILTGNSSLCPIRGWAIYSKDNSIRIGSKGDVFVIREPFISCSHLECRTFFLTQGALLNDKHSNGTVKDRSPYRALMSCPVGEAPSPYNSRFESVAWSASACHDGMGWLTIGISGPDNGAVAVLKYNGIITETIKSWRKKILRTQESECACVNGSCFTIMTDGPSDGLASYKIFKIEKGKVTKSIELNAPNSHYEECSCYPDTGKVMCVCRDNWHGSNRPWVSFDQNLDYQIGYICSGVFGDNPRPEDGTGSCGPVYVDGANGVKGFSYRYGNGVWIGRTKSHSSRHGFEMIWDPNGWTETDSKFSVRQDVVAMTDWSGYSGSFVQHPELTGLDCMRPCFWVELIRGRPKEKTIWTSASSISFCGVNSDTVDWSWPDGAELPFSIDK
For B1, which “neuraminidase activity assay (MUNANA substrate; 1-30 µM EB)” value is on record?
Its value is “the EB peptide did not inhibit NA activity”.
